Results of unrelated studies side by side (data: NIAID ChemDB).

Shared fields: growth or infection tests; agent: Hepatitis C virus; read by: replicon; measure: EC50

Blank or dashed fields: not listed here. Lines come from different laboratories, so protocols vary. a–b is a range or a potency band. ECn: concentration that inhibits the pathogen or its effect by n%.

| structure | strain | cell line | result |
|---|---|---|---|
| CNC(=O)c1c(-c2ccc(F)cc2)oc2cc(NS(C)(=O)=O)c(C3CCCO3)cc12 | - | Huh7 | <1 µM |
| Cc1ccc(Oc2ccccc2/C=N/NC(=O)Cc2ccccc2)cc1 | - | Huh7 | >50 µM |
| Cc1nc(N)nc(N[C@@H]2C[C@H](CO)[C@@H](O)[C@H]2O)c1-c1nc2ccccc2s1 | 1b | Huh7 | 0.02 µM |
| CNC(=O)c1c(-c2ccc(F)cc2)oc2cc(-c3cc(C)on3)c(OC(C)C)cc12 | - | Huh7 | <1 µM |
| O=C(Cc1cccc(Cl)c1)N/N=C/c1ccccc1NS(=O)(=O)c1ccc(C(F)(F)F)cc1 | - | Huh7 | >50 µM |
| C[C@@]1(O)[C@H](O)[C@@H](CO)O[C@H]1n1cnc2c(NO)ncnc21 | - | Huh7 | <25 µM |
| C=C[C@@H]1C[C@@]1(NC(=O)[C@H]1C[C@@H](Oc2nnc(OC(C)C)c3ccccc23)CN1C(=O)[C@@H](N)C(C)(C)C)C(=O)NS(=O)(=O)C1CC1 | BMS | Huh7 | 0.1–1 µM |
| CN1CC2CCC(C1)N2C(=O)C1=Cc2c(OC(C)(F)F)cccc2-c2c(C3CCCCC3)c3ccc(C(=O)NS(=O)(=O)N(C)C)cc3n2C1 | - | - | >0.5 µM |
| CNC(=O)C1c2cc(OC(C)C)c(N3CCC(N)C3)cc2OC1c1ccc(F)cc1 | - | Huh7 | <30 µM |
| O=C(NCc1ccccn1)Nc1ccccc1OS(=O)(=O)c1ccc(C(F)(F)F)cc1 | - | Huh7 | >50 µM |
| CCCCCCCC(=O)CCCCCC/C=C/[C@H](C(=O)N[C@@H](Cc1ccc(-c2cccc(C(F)(F)F)c2)cc1)C(=O)O)[C@@](O)(CC(=O)O)C(=O)O | - | Huh7 | 0.002 µM |
| CC(C)(C)OC(=O)NOc1ncnc2c1ncn2[C@@H]1O[C@H](CO)[C@@H](O)[C@@]1(C)O | - | Huh7 | <25 µM |
| Cc1ccc(NC(=O)c2ccco2)cc1-c1ccc(C(=O)Nc2ccc(CN3CCS(=O)(=O)CC3)cc2)cc1 | 1b | - | 0.6 µM |
| C=CC[C@](C)(NC(=O)[C@H]1C[C@@H](Oc2cccc3nccc(Cl)c23)CN1C(=O)[C@@H](NC(=O)OC(C)(C)C)C(C)(C)C)C(=O)NS(=O)(=O)C1CC1 | BMS | Huh7 | <0.1 µM |
| CCCCCCCC(=O)CCCCCC/C=C/[C@H](C(=O)N[C@@H](Cc1ccc(Oc2ccccc2F)cc1)C(=O)O)[C@@](O)(CC(=O)O)C(=O)O | - | Huh7 | 0.002 µM |
| CCCCCCCCNc1nc(=O)c2nc(Br)n(COCc3ccccc3)c2c(=O)[nH]1 | - | Huh7 | >10 µM |
| COC(=O)c1ccc2c(C3CCCCC3)c3n(c2c1)CC(C(=O)N1C2CCC1CN(C)C2)=Cc1cc(OC)ccc1-3 | - | - | >0.5 µM |
| C=CC[C@](C)(NC(=O)[C@H]1C[C@@H](Oc2cccc3c(Cl)ccnc23)CN1C(=O)[C@@H](NC(=O)OC(C)(C)C)C(C)(C)C)C(=O)NS(=O)(=O)C1CC1 | BMS | Huh7 | 1–10 µM |
| C=C1C(=O)O[C@@H]2[C@H]1CC[C@H](COC(=O)/C(C)=C\C)[C@]1(O)CCC(=O)[C@@]21C | - | Huh7 | <2 µM |
| C=CC[C@](C)(NC(=O)[C@H]1C[C@@H](Oc2nc(Br)c(O)c3ccccc23)CN1C(=O)[C@@H](NC(=O)OC(C)(C)C)C(C)(C)C)C(=O)NS(=O)(=O)C1CC1 | BMS | Huh7 | 0.1–1 µM |
| O=C(Cc1ccccc1)N/N=C/c1ccccc1OS(=O)(=O)c1ccccc1Cl | - | Huh7 | >50 µM |
| C=CC[C@](C)(NC(=O)[C@H]1C[C@@H](Oc2ccc3c(Cl)nccc3c2SCCC)CN1C(=O)[C@@H](NC(=O)OC(C)(C)C)C(C)(C)C)C(=O)NS(=O)(=O)C1CC1 | BMS | Huh7 | 0.1–1 µM |
| CCc1ccc(S(=O)(=O)N2CCN(c3cc(OC)cc(OC)c3)CC2C(=O)N(Cc2ccccc2Cl)Cc2ccccc2Cl)cc1 | 1a | - | >50 µM |
| COc1cccc(CC(=O)N/N=C/c2ccccc2OS(=O)(=O)c2ccc(-c3cnco3)cc2)c1 | - | Huh7 | <5 µM |
| Cc1ccc(C(=O)Nc2ccc(N3CCOCC3)cc2)cc1-c1ccc(C(=O)Nc2ccc(CN3CCOCC3)cc2)cc1 | 1b | - | 2.78 µM |
| COc1ccc(Cn2c(Br)nc3c(=O)nc(N)[nH]c(=O)c32)cc1 | - | Huh7 | <10 µM |
| CNC(=O)c1c(-c2ccccc2Cl)oc2ccc(OC)cc12 | - | Huh7 | >30 µM |
| S=C(Nc1ccccc1)Nc1ccc2c(c1)Cc1cc(Br)ccc1-2 | 1b | Ava5-EG(D4AB)SEAP | 42.84 µM |
| COc1cccc(CC(=O)N/N=C/c2ccccc2OS(=O)(=O)Cc2cccc(C(F)(F)F)c2)c1 | - | Huh7 | >50 µM |
| COc1ccc2c(c1)C=C(C(=O)N1C3CCC1CN(C)C3)Cn1c-2c(C2CCCCC2)c2ccc(C(=O)NS(=O)(=O)C(C)C)cc21 | - | - | 0.001–0.5 µM |
| Cc1ccc(NC(=O)[C@@H]2CCCN2)cc1-c1ccc(C(=O)Nc2ccc(CN3CCS(=O)(=O)CC3)cc2)cc1 | 1b | - | 0.13 µM |
| CCCCCCCC(=O)CCCCCC/C=C/[C@H](C(=O)N[C@@H](Cc1ccc(-c2cccc(OC)n2)cc1)C(=O)O)[C@@](O)(CC(=O)O)C(=O)O | - | Huh7 | 0.002 µM |
| C=C1C(=O)O[C@@H]2[C@H]1CC[C@H](COC(=O)C(C)CC)[C@]1(O)CCC(=O)[C@@]21C | - | Huh7 | >2 µM |
| CNC(=O)c1c(-c2ccc(F)cc2)oc2cc(C(C)=O)c(OC)cc12 | - | Huh7 | <1 µM |
| CCCCCCCC(=O)CCCCCC/C=C/[C@H](C(=O)N[C@@H](Cc1ccc(CNC(=O)OC2c3ccccc3-c3ccccc32)cc1)C(=O)O)[C@@](O)(CC(=O)O)C(=O)O | - | Huh7 | 0.008 µM |
| Fc1ccccc1-c1nc2ccn(Cc3ccc(-c4ccc(C(F)(F)F)cc4C(F)(F)F)nn3)cc-2n1 | 1b | - | 0.0006 µM |
| CCc1nc(N(C)C)nc(N[C@@H]2C[C@H](CO)[C@@H](O)[C@H]2O)c1-c1nc2ccccc2s1 | 1b | Huh7 | 0.14 µM |
| COC(=O)NNc1ncnc2c1ncn2[C@@H]1O[C@H](CO)[C@@H](O)[C@@]1(C)O | - | Huh7 | <25 µM |
| C=C[C@@H]1C[C@@]1(NC(=O)[C@H]1C[C@@H](Oc2nnc(-n3cncn3)c3ccccc23)CN1C(=O)[C@@H](N)C(C)(C)C)C(=O)NS(=O)(=O)C1CC1 | BMS | Huh7 | 0.1–1 µM |
| CCNc1nc(=O)c2nc(Br)n(Cc3ccc(OC)cc3)c2c(=O)[nH]1 | - | Huh7 | >10 µM |
| [N-]=[N+]=N[C@]1(CO)O[C@@H](n2ccc(N)nc2=O)[C@@H](F)[C@@H]1O | 1b | Huh-7 (cell line 2209-23) | 0.024 µM |
| C[C@@]1(O)[C@H](O)[C@@H](CO)O[C@H]1n1cnc2c(NCCN)ncnc21 | - | Huh7 | <25 µM |
| COc1ccc2c(c1)C=C(C(=O)N1CC3CCC(C1)N3C(=O)OC(C)(C)C)Cn1c-2c(C2CCCCC2)c2ccc(C(=O)NS(=O)(=O)N(C)C)cc21 | - | - | 0.001–0.5 µM |
| CCCCCCCCCCCCCCNc1nc(=O)c2nc(Br)n(Cc3ccc(OC)cc3)c2c(=O)[nH]1 | - | Huh7 | <10 µM |
| CNC(=O)c1c(-c2ccc(F)cc2)oc2cc(-c3cc(COC)on3)c(OC)cc12 | - | Huh7 | <1 µM |
| COc1cc(CC(=O)N/N=C/c2ccccc2OS(=O)(=O)c2ccc(C(F)(F)F)cc2)cc(OC)c1 | - | Huh7 | <5 µM |
| Cc1ccc(Oc2ccc(C[C@H](NC(=O)[C@@H](/C=C/CCCCCCC(=O)CCC3CCCCC3)[C@@](O)(CC(=O)O)C(=O)O)C(=O)O)cc2)cc1 | - | Huh7 | 0.002 µM |
| Cc1ccccc1C(=O)N/N=C/c1ccccc1OS(=O)(=O)c1ccc(C(F)(F)F)cc1 | - | Huh7 | <5 µM |
| COC(=O)N[C@H](C(=O)N1CCC[C@H]1c1ncc(-c2ccc(-c3ccc(-c4cnc([C@@H]5CCCN5C(=O)[C@@H](NC(=O)OC)C(C)C)[nH]4)cc3)cc2)[nH]1)C(C)C | Con1 | - | 0.000006 µM |
| C=C[C@@H]1C[C@@]1(NC(=O)[C@H]1C[C@@H](Oc2ccnc3cc(F)ccc23)CN1C(=O)[C@@H](NC(=O)OC(C)(C)C)C(C)(C)C)C(=O)NS(=O)(=O)C1CC1 | BMS | Huh7 | 0.1–1 µM |
| CNC(=O)c1c(-c2ccc(N3CCCC3)cc2)oc2ccc(OC(C)C)cc12 | - | Huh7 | <30 µM |
| C=CC[C@](C)(NC(=O)[C@H]1C[C@@H](Oc2n[nH]c(=O)c3ccccc23)CN1C(=O)[C@@H](NC(=O)OC(C)(C)C)C(C)(C)C)C(=O)NS(=O)(=O)C1CC1 | BMS | Huh7 | 1–10 µM |
| CCCS(=O)(=O)N1CCN(Cc2ccc(NC(=O)c3ccc(-c4cc(C(=O)Nc5ccc(N6CCOCC6)cc5)ccc4C)cc3)cc2)CC1 | 1b | - | 0.19 µM |

For reference, 3 entries again:

{"structure": "COC(=O)c1ccc2c(C3CCCCC3)c3n(c2c1)CC(C(=O)N1C2CCC1CN(C)C2)=Cc1cc(OC)ccc1-3", "result": ">0.5 µM"}
{"structure": "COC(=O)N[C@H](C(=O)N1CCC[C@H]1c1ncc(-c2ccc(-c3ccc(-c4cnc([C@@H]5CCCN5C(=O)[C@@H](NC(=O)OC)C(C)C)[nH]4)cc3)cc2)[nH]1)C(C)C", "strain": "Con1", "result": "0.000006 µM"}
{"structure": "CN1CC2CCC(C1)N2C(=O)C1=Cc2c(OC(C)(F)F)cccc2-c2c(C3CCCCC3)c3ccc(C(=O)NS(=O)(=O)N(C)C)cc3n2C1", "result": ">0.5 µM"}